This passage reports Potency results from PubChem BioAssay AID651644 (National Center for Advancing Translational Sciences (NCATS), 2012).

Molecules are shown by their SMILES. Only a part is listed here, and it is no random draw. Activity calls are given as the source filed them. Calls come from the whole dose curve; as a rule, active = well fitted falling curve with a large enough effect; inconclusive = small, poorly fitted or top-dose-only effect; inactive = no such curve, though single readings can be large or run the other way.
Potency is the fitted concentration of half-maximal effect.

The assay in a line: qHTS Assay for Inhibitors of the HIV-1 protein Vpr. Note: nearly all actives have a fitted effect of over 50% in size. Conditions: S. pombe RE007 Vpr strain, BacTiter-Glo ATP luminescence, 24 h.
For `O=P(Nc1nccs1)(c1ccccc1)c1nc2ccccc2s1` (stereo unspecified), the Potency is active: 15.8 µM.
